Results of unrelated studies side by side (data: NIAID ChemDB).

Shared fields: tests in culture; species: HIV-1

Rows are shuffled and stem from different studies.

smiles	read by	read-out	strain	mutations	cells	result
CC(=O)N1CCC(C(=O)N(CCCN2CCC(Cc3ccc(C(N)=O)cc3)CC2)c2ccc(C)c(Cl)c2)CC1	luciferase	EC50	R5X4 subtype B_1 recombinant	-	U87 (CD4+ CXCR4+) + U87	>19 µM
Cc1ccnc2c1NC(=O)c1cccnc1N2C1CC1	XTT	EC50	NL4-3	RT-V179D	CEM + CEM-SS	0.03 µM
Cc1cn([C@H]2C[C@H](N=[N+]=[N-])[C@@H](CO)O2)c(=O)[nH]c1=O	syncytia	EC50	J179-1 Clinical isolate ZDV-resistant	RT-M41L D67N L210W T215Y	HT4 + HeLa	2.6 µM
CC(C)Nc1cccnc1N1CCN(C(=O)c2cc3cc(NS(C)(=O)=O)ccc3[nH]2)CC1	MTT	EC50	IIIB	L100I	MT-4	3.472 µM
CCN(CC)C(=O)OCC1CN(C(=O)c2cc(OC)c(OC)c(OC)c2)CCN1C(=O)c1cc(OC)c(OC)c(OC)c1	RT activity	EC50	DAS Primary isolate	-	Macrophage + Monocytes/macrophages	10 µM
CCOP(=O)(COc1ccc(C[C@H](NC(=O)O[C@H]2CO[C@H]3OCC[C@H]32)[C@H](O)CN(CC(C)C)S(=O)(=O)c2ccc(OC)cc2)cc1)OCC	ATP	EC50	IIIB	LPV-P31 lopinavir-resistant mutant	MT-2	0.0048 µM
COc1cc(C#N)cc(C(=O)c2cc(Cl)ccc2OCC(=O)Nc2ccc(S(N)(=O)=O)cc2C)c1	-	EC50	-	K103N	HeLa	0.0005 µM
CC(C)CN(C[C@@H](O)[C@H](Cc1ccccc1)NC(=O)[C@@H](NC(=O)CNCc1cccc(F)c1)C(C)(C)C)S(=O)(=O)c1ccc(N)cc1	-	EC90	RF	-	MT-2	0.0057 µM
Cc1cn([C@H]2C[C@H](N=[N+]=[N-])[C@@H](CO)O2)c(=O)[nH]c1=O	cytopathic effect / XTT	EC50	RF	-	C8166	10 µM
Cc1cn([C@H]2C[C@H](N=[N+]=[N-])[C@@H](CO)O2)c(=O)[nH]c1=O	p24	EC50	7253 CLADE A CLADE A	-	PBMC	0.008 µM
N#CCN1C(=O)N(Cc2cccc(F)c2)S(=O)(=O)c2cscc21	syncytia	EC50	MN	-	MT-4	0.2 µM
CCCc1cc(=O)oc2c3c(c4c(c12)OC(C)(C)C=C4)O[C@H](C)[C@@H](C)[C@@H]3O	XTT	EC50	UC38-resistant (RT Y181C)	RT-Y181C	CEM + CEM-SS	0.2 µM
Fc1cccc(F)c1[C@H]1SCc2nc3ccccc3n21	cytopathic effect / XTT	EC50	IIIB	RT-D138K	CEM	0.87 µM
Cc1occc1C(=S)Nc1ccc(Cl)c(/C=N/OC(C)(C)C)c1	p24	EC50	IIIB	RT-G190E	CEM	>2 µg/mL
CC(=O)Nc1cccc(C#Cc2cc(C)c(Oc3ccnc(Nc4ccc(C#N)cc4)n3)c(C)c2)c1	MTT	EC50	IIIB	Y181C	MT-4	0.15 µM
Cc1cn([C@H]2C[C@H](N=[N+]=[N-])[C@@H](CO)O2)c(=O)[nH]c1=O	p24	EC50	126 3TC (RT-M184V)	RT-M184V	MT-4	0.04 µM
CCCc1cc(=O)oc2c3c(c4c(c12)OC(C)(C)C=C4)O[C@H](C)[C@@H](C)[C@@H]3O	cytopathic effect / XTT	EC50	UC38-R(RT-Y181C	RT-Y181C	CEM + CEM-SS	0.02 µM
CC(C)=CCN1Cc2cc(Cl)cc3[nH]c(=S)n(c23)C[C@@H]1C	p24	EC50	IIIB	-	CEM	0.02 µg/mL
O=C1N(Cc2ccc(CO)cc2)[C@H](Cc2ccccc2)[C@H](O)[C@@H](O)[C@@H](Cc2ccccc2)N1Cc1ccc(CO)cc1	virus yield	EC50	RF	-	H9	<0.04 µM
CC(=O)Nc1cc(C#N)cc(C(=O)c2cc(Cl)ccc2OCC(=O)Nc2ccc(S(N)(=O)=O)cc2C)c1	-	EC50	-	WTRVA	HeLa	0.06 µM
CC(C)=CCOc1cc(NC(=S)c2ccsc2C)ccc1Cl	XTT	EC50	IIIB	-	CEM + CEM-SS	0.05 µM
C#C[C@]1(CO)O[C@@H](n2cnc3c(N)nc(F)nc32)C[C@@H]1O	fluorescence	EC50	Clinical isolate	A158T	MT4-GFP	0.00097 µM
CC(=O)c1ccc(C)cc1NC(C(N)=O)c1c(Cl)cccc1Cl	MTT	EC50	IIIB	RT-E138K	MAGI	0.053 µM
c1cc(CN2CCCNCCNCCCNCC2)ccc1CN1CCCNCCNCCCNCC1	cytopathic effect / MTT	EC50	NL4-3	-	MT-4	0.01 µM
c1cc(CN2CCCNCCNCCCNCC2)ccc1CN1CCCNCCNCCCNCC1	-	EC50	NL4-3	L-CA resistant	MT-4	0.02 µM
Cc1cc(C#Cc2cccnc2)cc(C)c1Oc1ccnc(Nc2ccc(C#N)cc2)n1	MTT	EC50	IIIB	F227L + V106A	MT-4	0.209 µM
Cc1cc(S(N)(=O)=O)ccc1NC(=O)COc1ccc(Cl)cc1C(=O)c1cc(C#N)cc(OCF)c1	-	EC50	-	K103N	HeLa	0.0016 µM
CCCc1cc(=O)oc2c3c(c4c(c12)OC(C)(C)C=C4)O[C@@H](C)[C@H](C)[C@@H]3O	RT activity	EC50	SLKA(SI)	-	PBMC	0.03 µM
CO[P@](=O)(c1cc(C)cc(/C=C/C#N)c1)c1c(C(N)=O)[nH]c2ccc(Cl)cc12	-	EC50	WT (NL4-3)	-	PBMC	0.0015 µM
Nc1ncnc2c1ncn2CCOCP(=O)(O)O	p24	EC50	HXB2D (RT-M184V)	RT-M184V	CBMC	0.3 ± 0.05 µM
Cc1cc(S(N)(=O)=O)ccc1NC(=O)COc1ccc(Cl)cc1C(=O)c1cc(C#N)cc(OC(F)F)c1	-	EC50	-	Y181C	HeLa	0.0018 µM
Cc1cc(C#Cc2ccc(C(F)(F)F)cc2)cc(C)c1Oc1ccnc(Nc2ccc(C#N)cc2)n1	MTT	EC50	IIIB	F227L + V106A	MT-4	>7.353 µM
CN1N=C(N)c2cn([C@@H]3O[C@H](COP(=O)(O)O)[C@@H](O)[C@H]3O)c3ncnc1c23	XTT	EC50	SK1	-	CEM + CEM-SS	0.09 µM
O=C1N(Cc2ccccc2)c2cscc2S(=O)(=O)N1Cc1ccccc1	syncytia	EC50	MN	-	MT-4	2.3 µM
Cc1ccnc2c1NC(=O)c1cccnc1N2C1CC1	RT activity / fluorescence	EC50	-	-	-	>67.5 µM
Cc1cn([C@H]2C[C@H](N=[N+]=[N-])[C@@H](CO)O2)c(=O)[nH]c1=O	XTT	EC50	Diphenyl sulfone-resistant (RT-Y181C)	RT-Y181C	CEM + CEM-SS	0.01 µM
CC(C)CN(C[C@@H](O)[C@H](Cc1ccccc1)NC(=O)[C@@H](NC(=O)CNCc1cccc(F)c1)C(C)(C)C)S(=O)(=O)c1cccc(N)c1	virus yield	EC50	Clinical isolate E	-	MT-2	<0.011 µM
CCN1C(=O)N(Cc2ccccc2Cl)S(=O)(=O)c2cscc21	syncytia	EC50	HE	-	MT-4	11.5 µM
COC(=O)Nc1cc(C#N)cc(C(=O)c2cc(Cl)ccc2OCC(=O)Nc2ccc(S(N)(=O)=O)cc2C)c1	-	EC50	-	Y181C	HeLa	0.016 µM
CCN(c1nc(F)ccc1NC(C)(C)C)C1CCN(C(=O)c2cc3cc(NC(=O)N4CCN(C)CC4)ccc3[nH]2)CC1	p24 / ELISA	EC50	IIIB	K112M K113E V128I M200I H219P	MT-2	0.0261 µM
Cc1cn([C@H]2C[C@H](N=[N+]=[N-])[C@@H](CO)O2)c(=O)[nH]c1=O	cytopathic effect / XTT	EC50	G910-6 AZT-resistant	-	MT-2	>1 µM
O=C(N[C@H]1c2ccccc2OC[C@H]1O)[C@H](Cc1cccnc1)C[C@H](O)CN1CCN(Cc2ccn(-c3cc(Cl)c(Cl)c(Cl)c3)c2)C[C@H]1C(=O)NCC(F)(F)F	p24	EC95	V-18C Clinical isolate	PR-L10I M36I N37D M46I R57K L63P A71V G73S I84V L90M I93L	MT-4	0.015 µM
Cc1cc(S(N)(=O)=O)ccc1NC(=O)COc1ccc(Cl)cc1C(=O)c1cc(N)cc(C#N)c1	-	EC50	-	Y181C	HeLa	0.0068 µM
Nc1nc(=O)n([C@@H]2CS[C@H](CO)O2)cc1F	recombinant virus assay	EC50	Clinical isolate	K65R/Y181C/G190S	MT-2	1.677 µM
Cc1cn([C@H]2C[C@H](N=[N+]=[N-])[C@@H](CO)O2)c(=O)[nH]c1=O	p24	EC50	IIIB/LAI	-	MT-4	0.026 µM
COC(=O)[C@H](C)NP(=O)(OC[C@@H]1C=C[C@H](n2cc(C)c(=O)[nH]c2=O)O1)Oc1ccc(Br)cc1	p24	EC50	R416-10 Clinical isolate ZDV-resistant	RT-M41L T215Y	PBMC	0.0002 µM
Cc1cn([C@@H]2O[C@H](CO[Si](C)(C)C(C)(C)C)C3(OS(=O)(=O)C=C3N)[C@H]2O[Si](C)(C)C(C)(C)C)c(=O)n(C)c1=O	p24	EC50	IIIB	RT-K103N	CEM	0.138 µg/mL
Cc1cn([C@H]2C=C[C@@H](CO)O2)c(=O)[nH]c1=O	recombinant virus assay	EC50	Clinical isolate	D67N/T69N/K70R/K103N/M184V/T215F/K219Q	MT-2	0.624 µM
Cc1ccnc2c1NC(=O)c1cccnc1N2C1CC1	p24	EC50	IIIB	RT-M184V	CEM	0.07 µg/mL
Fc1cccc(F)c1[C@@H]1SCc2nc3ccccc3n21	cytopathic effect	EC50	IIIB	-	MT-4	2.32 µM
O=C1N(Cc2ccc(CO)cc2)[C@H](COc2ccccc2)[C@H](O)[C@@H](O)[C@@H](COc2ccccc2)N1Cc1ccc(CO)cc1	cytopathic effect / XTT	EC50	IIIB	-	MT-4	0.07 µM
CC(C)[C@H](NC(=O)c1ccc2ccccc2n1)C(=O)N[C@@H](Cc1ccccc1)[C@H](O)CN1CC[C@@H](OCc2ccncc2)C[C@H]1C(=O)NC(C)(C)C	p24	EC50	HXB2	-	C8166	0.0005 µM
O=C(N[C@H]1c2ccccc2OC[C@H]1O)[C@H](Cc1cccnc1)C[C@H](O)CN1CCN(Cc2ccn(-c3ccccc3F)c2)C[C@H]1C(=O)NCC(F)(F)F	p24	EC50	K-60C Clinical isolate	PR-L10I M46I I54V Q58E L63P I64V V77I V82F I84V L90M I93L	MT-4	<0.062 µM
Cc1cn([C@@H]2O[C@H](CO[Si](C)(C)C(C)(C)C)C3(OS(=O)(=O)C=C3N)[C@H]2O[Si](C)(C)C(C)(C)C)c(=O)n(C)c1=O	cytopathic effect / XTT	EC50	IIIB	RT-L100I	CEM	0.06 µM
CCN1C(=O)N(Cc2ccccc2)S(=O)(=O)c2cscc21	syncytia	EC50	IIIB	-	CEM	2.8 µM
N#Cc1ccccc1-n1ccc(CN2CCN(C[C@@H](O)C[C@@H](Cc3cccnc3)C(=O)N[C@H]3c4ccccc4OC[C@H]3O)[C@H](C(=O)NCC(F)(F)F)C2)c1	p24	EC50	NL4-3 WT	-	MT-4	<0.046 µM
Cc1cc(S(N)(=O)=O)ccc1NC(=O)COc1ccc(Cl)cc1C(=O)c1cc(C#N)cc(N(C)C)c1	-	EC50	-	K103N	HeLa	0.0013 µM
Fc1cccc(F)c1C1SCc2nc3ccccc3n21	RT activity	EC50	WEJO	-	PBL	0.69 µM
Cc1ccccc1-n1ccc(CN2CCN(C[C@@H](O)C[C@@H](Cc3cccnc3)C(=O)N[C@H]3c4ccccc4OC[C@H]3O)[C@H](C(=O)NCC(F)(F)F)C2)c1	p24	EC95	NL4-3 WT	-	MT-4	≤0.008 µM
Cc1ccc(S(=O)(=O)N(CC(C)C)C[C@@H](O)[C@H](Cc2ccccc2)NC(=O)O[C@H]2CO[C@H]3OCC[C@H]32)cc1	p24 / ELISA	EC50	IIIB	D437N	MT-2	0.008 µM

Again, the opening 8 rows:

smiles	read by	read-out	strain	mutations	cells	result
CC(=O)N1CCC(C(=O)N(CCCN2CCC(Cc3ccc(C(N)=O)cc3)CC2)c2ccc(C)c(Cl)c2)CC1	luciferase	EC50	R5X4 subtype B_1 recombinant	-	U87 (CD4+ CXCR4+) + U87	>19 µM
Cc1ccnc2c1NC(=O)c1cccnc1N2C1CC1	XTT	EC50	NL4-3	RT-V179D	CEM + CEM-SS	0.03 µM
Cc1cn([C@H]2C[C@H](N=[N+]=[N-])[C@@H](CO)O2)c(=O)[nH]c1=O	syncytia	EC50	J179-1 Clinical isolate ZDV-resistant	RT-M41L D67N L210W T215Y	HT4 + HeLa	2.6 µM
CC(C)Nc1cccnc1N1CCN(C(=O)c2cc3cc(NS(C)(=O)=O)ccc3[nH]2)CC1	MTT	EC50	IIIB	L100I	MT-4	3.472 µM
CCN(CC)C(=O)OCC1CN(C(=O)c2cc(OC)c(OC)c(OC)c2)CCN1C(=O)c1cc(OC)c(OC)c(OC)c1	RT activity	EC50	DAS Primary isolate	-	Macrophage + Monocytes/macrophages	10 µM
CCOP(=O)(COc1ccc(C[C@H](NC(=O)O[C@H]2CO[C@H]3OCC[C@H]32)[C@H](O)CN(CC(C)C)S(=O)(=O)c2ccc(OC)cc2)cc1)OCC	ATP	EC50	IIIB	LPV-P31 lopinavir-resistant mutant	MT-2	0.0048 µM
COc1cc(C#N)cc(C(=O)c2cc(Cl)ccc2OCC(=O)Nc2ccc(S(N)(=O)=O)cc2C)c1	-	EC50	-	K103N	HeLa	0.0005 µM
CC(C)CN(C[C@@H](O)[C@H](Cc1ccccc1)NC(=O)[C@@H](NC(=O)CNCc1cccc(F)c1)C(C)(C)C)S(=O)(=O)c1ccc(N)cc1	-	EC90	RF	-	MT-2	0.0057 µM

ECn: concentration that inhibits the pathogen or its effect by n%. Blank or dashed fields: not listed here.